Anti-infective test results gathered from many reports (values: NIAID ChemDB through PubChem).

All rows: whole-cell or culture tests; agent: HIV-1; endpoint: EC50

ECn is the concentration giving n% inhibition of infection, replication or growth.

structure | changes | strain | read by | cell line | result
COc1c(-c2cc(C)n(-c3ccccc3)n2)c(O)c(S(=O)(=O)OC2CCCCC2)c2occc12 | - | IIIB | MTT | MT-4 | 0.000021 µM
COCc1nc(Nc2ccc(C#N)cc2)nc(Nc2c(C)cc(/C=C/C#N)cc2C)c1C(=O)N1CCC(O)CC1 | - | K103N+Y101C | - | MT4 CMV-EGFP | 1.7 µM
Cc1cc(C)cc(S(=O)(=O)c2c(C(=O)NCCP(=O)(O)O)[nH]c3ccc(Cl)cc23)c1 | - | IIIB | MTT | MT-4 | 4.42 µM
O=C(N[C@H]1c2ccccc2C[C@H]1O)[C@H](Cc1ccccc1)C[C@H](O)CN1C(=O)N(Cc2ccccc2)C[C@@H]1Cc1ccccc1 | - | - | - | MT-4 + MT4 | 1.4 µM
COc1c(C(=O)/C=C(/C)Nc2ccccc2)c(O)c(S(=O)(=O)OC2CCCC2)c2occc12 | - | IIIB | MTT | MT-4 | 0.000044 µM
CC(=O)N[C@@H]1CCN(c2cc(C)nn3c(-c4nccs4)c(C)nc23)C1 | - | - | p24 | H9 | 1 µM
Cc1cc(C#N)cc(C)c1Oc1nc(Nc2ccc(C#N)cc2)ncc1SCC(=O)Nc1ccc(S(C)(=O)=O)cc1 | - | IIIB | MTT | MT-4 | 0.0065 µM
CC(=O)Oc1c(OCC(=O)c2ccc(Br)cc2)ccc2c1C(=O)c1ccccc1C2=O | - | - | cytopathic effect | MT-2 | >100 µM
Cc1cn([C@H]2C=C[C@@H](CO)O2)c(=O)[nH]c1=O | RT-K65R | HXB2 | cytopathic effect / MTT | MT-4 | 0.6 µM
NC(=O)c1c[nH]c(Cc2ccccc2)cc1=O | - | - | MTT | C8166 | >100 µM
CCc1cn([C@H]2C[C@H](N=[N+]=[N-])[C@@H](CO)O2)c(=O)[nH]c1=O | - | - | cytopathic effect | MT-4 | 64 µM
Cn1nc(NS(C)(=O)=O)c2c(Cl)ccc(-n3c([C@H](Cc4cc(F)cc(F)c4)NC(=O)Cn4nc(C(F)F)c5c4C(F)(F)[C@@H]4C[C@H]54)nc4nc(-c5cc(C(F)(F)F)ncn5)ccc4c3=O)c21 | - | NL4-3 | luciferase | MT-2 | 0.00028 µM
CC(C)=CCn1c(=O)c(C)cn([C@H]2C[C@H](N=[N+]=[N-])[C@@H](CO)O2)c1=O | - | IIIB | MTT | MT-4 | 10 µM
Cc1cc(C#N)cc(C)c1Oc1nc(Nc2ccc(C#N)cc2)ncc1SCC(=O)NCc1ccc(O)cc1 | Y181C | - | MTT | MT-4 | 0.0384 µM
COc1c2ccoc2c(S(=O)(=O)OC2CCCC2)c2oc(C)cc(=O)c12 | - | RF | cytopathic effect / MTS | CEM-SS | 0.000087 µM
CC(C)C1=C2[C@H]3CC[C@@H]4[C@@]5(C)CC[C@H](OC(=O)[C@H]6C[C@@H](C(=O)O)C6(C)C)C(C)(C)[C@@H]5CC[C@@]4(C)[C@]3(C)CC[C@@]2(CCNCC2(N)CNC2)CC1=O | - | 92HT599 | p24 / ELISA | MT-2 | <1 µM
CCCS(=O)(=O)NC(=O)c1[nH]c2ccc(Cl)cc2c1S(=O)(=O)c1cc(C)cc(C)c1 | - | RES056 | MTT | MT-4 | >141 µM
COCc1nc(Nc2ccc(C#N)cc2)nc(Nc2c(C)cc(/C=C/C#N)cc2C)c1C(=O)NCCc1cccs1 | - | K103N+Y101C | - | MT4 CMV-EGFP | 0.195 µM
COc1c2ccoc2c(S(=O)(=O)Oc2ccc([N+](=O)[O-])cc2)c2oc(C)cc(=O)c12 | - | IIIB | MTT | MT-4 | 0.000057 µM
C#CCNC(=O)CSc1cnc(Nc2ccc(C#N)cc2)nc1Oc1c(C)cc(C#N)cc1C | K103N | - | MTT | MT-4 | 0.0016 µM
CCCn1c(Sc2cc[n+]([O-])cc2)c([N+](=O)[O-])c(=O)[nH]c1=O | - | IIIB | - | MT-4 | >0.313 µg/mL
Cc1cc(C)cc(S(=O)(=O)c2c(C(=O)NS(=O)(=O)c3ccc(F)cc3F)[nH]c3ccc(Cl)cc23)c1 | E138K | - | MTT | MT-4 | 2.01 µM
C=CCNC(=O)CSc1cnc(Nc2ccc(C#N)cc2)nc1Oc1c(C)cc(C#N)cc1C | F227L V106A | - | MTT | MT-4 | 0.1775 µM
CC1Cn2c(=O)[nH]c3cc(Cl)cc(c32)S(=O)(=O)N1 | - | - | cytopathic effect / MTT | MT-4 | >200 µM
CC(C)C1=C2[C@H]3CC[C@@H]4[C@@]5(C)CC[C@H](OC(=O)[C@H]6C[C@@H](C(=O)O)C6(C)C)C(C)(C)[C@@H]5CC[C@@]4(C)[C@]3(C)CC[C@@]2(CC(=O)NC2(c3ccc(Cl)cc3)CCC2)CC1=O | - | 92HT599 | p24 / ELISA | MT-2 | <1 µM
COc1c(-c2cc(C)on2)c(O)c(S(=O)(=O)Oc2ccc(F)cc2)c2occc12 | - | IIIB | MTT | MT-4 | 0.000031 µM
CCc1c(C)[nH]c(=O)c2c1Sc1ccccc1C(C#N)N2 | - | LAI | RT activity | CEM + CEM-SS | 0.002 µM
COc1ccc(-c2c(C)nc3c(N4CC[C@H](NC(C)=O)C4)cc(C)nn23)cc1OC | - | - | p24 | H9 | 2 µM
O=C(N[C@H]1c2ccccc2C[C@H]1O)[C@H](Cc1ccccc1)C[C@H](O)CN1C(=O)N(Cc2cccc(F)c2)C[C@@H]1Cc1ccccc1 | - | - | - | MT-4 + MT4 | 2.2–10 µM
COCc1nc(Nc2ccc(C#N)cc2)nc(Nc2c(C)cc(/C=C/C#N)cc2C)c1C(=O)NCc1ccccn1 | - | L1001+K103N | - | MT4 CMV-EGFP | 0.0525 µM
CC(C)=CCN(C(C)C(=O)O)S(=O)(=O)c1cc(Cl)ccc1[N+](=O)[O-] | - | - | cytopathic effect / MTT | MT-4 | ≥200 µM
CC(C)C1=C2[C@H]3CC[C@@H]4[C@@]5(C)CC[C@H](OC(=O)[C@H]6C[C@@H](C(=O)O)C6(C)C)C(C)(C)[C@@H]5CC[C@@]4(C)[C@]3(C)CC[C@@]2([C@@H](O)CNC(=O)C2CCC2)CC1=O | - | 92HT599 | p24 / ELISA | MT-2 | <1 µM
Cc1cn([C@H]2C[C@H](N=[N+]=[N-])[C@@H](CO)O2)c(=O)n(C(C)C)c1=O | - | IIIB | MTT | MT-4 | 6.7 µM
Cc1cc(C#N)cc(C)c1Oc1nc(Nc2ccc(C#N)cc2)ncc1SCC(=O)NCC1CCCO1 | F227L V106A | - | MTT | MT-4 | 0.2944 µM
CCOC(=O)P(=O)(O)OC[C@H]1O[C@@H](n2cc(C)c(=O)[nH]c2=O)C[C@@H]1N=[N+]=[N-] | - | pHXBc2 | RT activity | Jurkat cells | 0.1 µM
C[C@@H](CC(=O)NC(=O)c1c[nH]c(Cc2ccccc2)cc1=O)C(=O)O | - | - | MTT | C8166 | >100 µM
CCCn1c(=O)c(C)cn([C@H]2C[C@H](N=[N+]=[N-])[C@@H](CO)O2)c1=O | - | IIIB | MTT | MT-4 | >345 µM
COc1ccc(CN2C[C@H](Cc3ccccc3)N(C[C@@H](O)C[C@@H](Cc3ccccc3)C(=O)N[C@H]3c4ccccc4C[C@H]3O)C2=O)cc1 | - | - | - | MT-4 + MT4 | 2.2–10 µM
Cc1cn([C@H]2C[C@H](N=[N+]=[N-])[C@@H](CO)O2)c(=O)nc1N | - | - | cytopathic effect | MT-4 | 1.8 µM
Cc1cc(C)cc(S(=O)(=O)c2c(C(=O)NS(=O)(=O)c3ccc(F)cc3)[nH]c3ccc(Cl)cc23)c1 | L100I | - | MTT | MT-4 | 8.86 µM
Cn1c(Sc2ccncc2)c([N+](=O)[O-])c(=O)n(C)c1=O | - | IIIB | - | MT-4 | >11.6 µg/mL
CCn1c(=O)c(C)cn([C@H]2C[C@H](N=[N+]=[N-])[C@@H](CO)O2)c1=O | - | IIIB | MTT | MT-4 | 16 µM
CCc1c(C)[nH]c(=O)c2c1Sc1ccccc1C(=O)N2 | - | LAI | RT activity | CEM + CEM-SS | 0.084 µM
Cc1cc(C#N)cc(C)c1Oc1nc(Nc2ccc(C#N)cc2)ncc1SCC(=O)NC1CC1 | Y188L | - | MTT | MT-4 | 0.0292 µM
COc1ccc(-n2cnc3c(N4CC[C@@H](NC(C)=O)C4)ncnc32)cc1OC | - | - | p24 | H9 | >100 µM
C=CCN1C(C)C(=O)Nc2ccc(Cl)cc2S1(=O)=O | - | - | cytopathic effect / MTT | MT-4 | 28 µM
[2H]C([2H])(NC(=O)c1ccc(Cl)cc1)C(=O)NC[C@H](O)[C@@]12CC[C@]3(C)[C@H](CC[C@@H]4[C@@]5(C)CC[C@H](OC(=O)[C@H]6C[C@@H](C(=O)O)C6(C)C)C(C)(C)[C@@H]5CC[C@]43C)C1=C(C(C)C)C(=O)C2 | - | 92HT599 | p24 / ELISA | MT-2 | <1 µM
Cc1cc(C)cc(S(=O)(=O)c2c(C(=O)NCCn3ccc(=O)[nH]c3=O)[nH]c3ccc(Cl)cc23)c1 | - | RES056 | MTT | MT-4 | >9.44 µM
COc1cc(C(OC(=O)c2ccc3c(c2)OCO3)[C@H](C)C(C)O)ccc1O | - | - | - | C8166 | 4.22 µg/mL
Cc1cc(C#N)cc(C)c1Oc1nc(Nc2ccc(C#N)cc2)ncc1SCC(=O)NC1CCN(C(=O)OC(C)(C)C)CC1 | RES056 | - | MTT | MT-4 | 0.5858 µM
Cc1cc(C)cc(S(=O)(=O)c2c(C(=O)NS(=O)(=O)C(F)(F)F)[nH]c3ccc(Cl)cc23)c1 | Y181C | - | MTT | MT-4 | 45.79 µM
COc1c2ccoc2c(S(=O)(=O)Oc2ccc(F)cc2)c2oc(C)cc(=O)c12 | - | IIIB | MTT | MT-4 | 0.000055 µM
COc1ccc(C(=O)O[C@@H](c2cc(O)c(OC)c(OC)c2)[C@H](C)C(C)O)cc1OC | - | - | - | C8166 | 4.14 µg/mL
Nc1nc2c(ncn2[C@@H]2OC[C@H](/C=C/P(=O)(O)O)C23CC3)c(=O)[nH]1 | - | LAV-1 | RT activity | PBMC | 66 µM
CC(C)(C)C(=O)SCCOP(=O)(OCCSC(=O)C(C)(C)C)OC[C@H]1O[C@@H](n2ccc(N)nc2=O)CS1 | - | RF | MTT / p24 | MOLT-4/8 + MOLT-4 | 0.008 µM
Cn1nc(NS(C)(=O)=O)c2c(Cl)ccc(-n3c([C@H](Cc4cc(F)cc(F)c4)NC(=O)Cn4nc(C(F)F)c5c4C(F)(F)[C@@H]4C[C@H]54)nc4nc(-c5cccnc5)ccc4c3=O)c21 | - | NL4-3 | luciferase | MT-2 | 0.000055 µM
CCN1CC(=O)Nc2ccc(Cl)cc2S1(=O)=O | - | - | cytopathic effect / MTT | MT-4 | 36 µM
CC(=O)N[C@@H]1CCN(c2ccnn3cc(C)nc23)C1 | - | - | p24 | H9 | >10 µM
COc1cc(Cl)ccc1C(=O)NC(C)(C)CNCC[C@@]12CC[C@]3(C)[C@H](CC[C@@H]4[C@@]5(C)CC[C@H](OC(=O)[C@H]6C[C@@H](C(=O)O)C6(C)C)C(C)(C)[C@@H]5CC[C@]43C)C1=C(C(C)C)C(=O)C2 | - | 92HT599 | p24 / ELISA | MT-2 | <1 µM
Cc1cn([C@H]2C[C@H](N=[N+]=[N-])[C@@H](CO)O2)c(=O)n(C)c1=O | - | IIIB | MTT | MT-4 | 6.6 µM
Nc1ncnc2c1ncn2[C@H]1CC[C@@H](CO)O1 | - | - | cytopathic effect | MT-4 | 6 µM
COc1ccc(-c2c(C)nc3c(N4CC[C@@H](N5CCOCC5)C4)cc(C)nn23)cc1OC | - | - | p24 | H9 | 0.7 µM
COc1c(C(=O)/C=C(/C)Nc2ccc(Cl)cc2)c(O)c(S(=O)(=O)OC2CCCCC2)c2occc12 | - | IIIB | MTT | MT-4 | 0.000044 µM
CC(C)C1=C2[C@H]3CC[C@@H]4[C@@]5(C)CC[C@H](OC(=O)[C@H]6C[C@@H](C(=O)O)C6(C)C)C(C)(C)[C@@H]5CC[C@@]4(C)[C@]3(C)CC[C@@]2(CCNCC(C)(CCN)NC(=O)c2ccc(Cl)cc2)CC1=O | - | 92HT599 | p24 / ELISA | MT-2 | <1 µM
COCCNC(=O)c1c(COC)nc(Nc2ccc(C#N)cc2)nc1Nc1c(C)cc(/C=C/C#N)cc1C | - | IIIB | - | MT4 CMV-EGFP | 0.00347 µM
COCCNC(=O)CSc1cnc(Nc2ccc(C#N)cc2)nc1Oc1c(C)cc(C#N)cc1C | Y181C | - | MTT | MT-4 | 0.0196 µM
COCc1nc(Nc2ccc(C#N)cc2)nc(Nc2c(C)cc(/C=C(\C)C#N)cc2C)c1C(=O)NCc1ccncc1 | - | K103N + Y181C | - | MT4 CMV-EGFP | 0.02 µM
CCCn1c(Sc2ccccc2)c(N)c(=O)[nH]c1=O | - | IIIB | - | MT-4 | >44.3 µg/mL
COCc1nc(Nc2ccc(C#N)cc2)nc(Nc2c(C)cc(/C=C/C#N)cc2C)c1C(=O)NCCN(C)C | - | K103N+Y101C | - | MT4 CMV-EGFP | 0.0851 µM
COc1c(C(=O)/C=C(/C)Nc2ccc([N+](=O)[O-])cc2)c(O)c(S(=O)(=O)Oc2ccc(F)cc2)c2occc12 | - | IIIB | MTT | MT-4 | 0.000037 µM
Nc1ccn([C@H]2CC[C@@H](CO)O2)c(=O)n1 | - | SK1 | - | CEM + CEM-SS | 0.0254 µM

For reference, 4 entries again:

structure	changes	strain	read by	cell line	result
Cc1cc(C)cc(S(=O)(=O)c2c(C(=O)NCCP(=O)(O)O)[nH]c3ccc(Cl)cc23)c1	-	IIIB	MTT	MT-4	4.42 µM
Cc1cn([C@H]2C=C[C@@H](CO)O2)c(=O)[nH]c1=O	RT-K65R	HXB2	cytopathic effect / MTT	MT-4	0.6 µM
COc1c(C(=O)/C=C(/C)Nc2ccc(Cl)cc2)c(O)c(S(=O)(=O)OC2CCCCC2)c2occc12	-	IIIB	MTT	MT-4	0.000044 µM
Cc1cn([C@H]2C[C@H](N=[N+]=[N-])[C@@H](CO)O2)c(=O)n(C)c1=O	-	IIIB	MTT	MT-4	6.6 µM

Lines come from different laboratories, so protocols vary. Two numbers with a dash give a range or band. Blank or dashed fields: not listed here.